Pooled drug test results. Numbers come from NIAID ChemDB, via PubChem.

All rows: tests on isolated targets; species: HIV-1; protein: Reverse transcriptase

ICn: concentration for n% inhibition.

structure,read-out,read by,strain,changes,result
CCN1c2ncc(CCOc3ccc(CCC(=O)O)c4ccccc34)cc2C(=O)N(C)c2ccc(F)nc21,fold resistance,nucleotide incorporation / radiometric,,RT-K103N Y181C,1–10
CCN1c2ncc(CCOc3ccc(C(=O)NS(=O)(=O)c4ccccc4)cc3C)cc2C(=O)N(C)c2cccnc21,fold resistance,nucleotide incorporation / radiometric,IIIB,RT-K103N Y181C,>2
CCc1cc(NCc2nc3c(C)ccc(C)c3o2)c(=O)[nH]c1C,fold resistance,nucleotide incorporation,,RT-Y181H,24.3
CCN1c2ncc(CCOc3ccc(C(=O)N=c4ccccn4O)cc3C)cc2C(=O)N(C)c2cccnc21,fold resistance,nucleotide incorporation / radiometric,IIIB,RT-K103N Y181C,1
CCNC(=O)N1CCc2c(OCCc3cnc4c(c3)C(=O)N(C)c3cccnc3N4CC)ccc(C(=O)O)c2C1,fold resistance,nucleotide incorporation / radiometric,,RT-Y188L,>10
CC(C)(C#Cc1ccc(NC(=O)CSc2nnnn2-c2ccc(C(C)(C)C)cc2Cl)c(Cl)c1)OCC(=O)Nc1ccc(C(=O)O)cc1,IC50,PicoGreen / fluorescence,,RT-K103 Y181C,<1 µM
CCN1c2ncc(CCOc3ccc(-c4ccc(C(=O)O)c(F)c4)cc3C)cc2C(=O)N(C)c2cccnc21,fold resistance,nucleotide incorporation / radiometric,IIIB,RT-K103N Y181C,1
CN1CCN(C(=O)COC(C)(C)C#Cc2ccc(NC(=O)CSc3nnnn3-c3ccc(C(C)(C)C)cc3Cl)c(Cl)c2)CC1,IC50,PicoGreen / fluorescence,WT,,<1 µM
CCN1c2ncc(CCOc3ccc(-c4ccc(CC(=O)O)cc4)cc3)cc2C(=O)N(C)c2cccnc21,fold resistance,nucleotide incorporation / radiometric,IIIB,RT-K103N Y181C,>1
O=C(CSc1nnnn1-c1ccc(C2CC2)cc1Cl)Nc1ccc(C(=O)NCc2ccc[n+]([O-])c2)cc1Cl,IC50,PicoGreen / fluorescence,,RT-K103 Y181C,<1 µM
CCN1c2ncc(CCOc3ccc(NS(C)(=O)=O)c4ccccc34)cc2C(=O)N(C)c2ccc(F)nc21,fold resistance,nucleotide incorporation / radiometric,,RT-V106A,1–10
CC(C)(C#Cc1ccc(NC(=O)CSc2nnnn2-c2ccc(C3CC3)cc2Cl)c(Cl)c1)NC(=O)c1ccc[n+]([O-])c1,IC50,PicoGreen / fluorescence,,RT-K103 Y181C,<1 µM
CCN1c2ncc(CCOc3ccc(C4CC4C(=O)O)c4ccccc34)cc2C(=O)N(C)c2ccc(F)nc21,fold resistance,nucleotide incorporation / radiometric,,RT-Y188L,1–10
Cc1ccc(-n2nncc2SCC(=O)Nc2ccc(-c3ccc(CC(=O)O)cc3)cc2Cl)c(Cl)c1,IC50,PicoGreen / fluorescence,,RT-K103 Y181C,<1 µM
CCN1c2ncc(CCOc3ccc(S(=O)(=O)NCC(=O)O)c4ccccc34)cc2C(=O)N(C)c2cccnc21,fold resistance,nucleotide incorporation / radiometric,,RT-Y188L,1–10

A second listing of 2 rows from above:

{"structure": "O=C(CSc1nnnn1-c1ccc(C2CC2)cc1Cl)Nc1ccc(C(=O)NCc2ccc[n+]([O-])c2)cc1Cl", "read-out": "IC50", "read by": "PicoGreen / fluorescence", "changes": "RT-K103 Y181C", "result": "<1 µM"}
{"structure": "Cc1ccc(-n2nncc2SCC(=O)Nc2ccc(-c3ccc(CC(=O)O)cc3)cc2Cl)c(Cl)c1", "read-out": "IC50", "read by": "PicoGreen / fluorescence", "changes": "RT-K103 Y181C", "result": "<1 µM"}

Fold resistance has wild type as its base. An empty or dashed field is not shown. Two numbers with a dash give a range or band. Lines come from different laboratories, so protocols vary.